Anti-infective test results gathered from many reports (values: NIAID ChemDB through PubChem).

Shared fields: whole-cell or culture tests; species: Vesicular stomatitis virus; measure: EC50

Conditions beyond the fields shown may differ between rows.

SMILES	cell line	read by	result
CCc1nc(-n2c(C)nc3ccc(Br)cc3c2=O)nc(N)c1-c1ccc(Cl)cc1	HeLa	cytopathic effect	>16 µg/mL
O=c1c2ncn(COCCO)c2[nH]c2ncc(C(c3ccccc3)(c3ccccc3)c3ccccc3)n12	-	cytopathic effect	>16 µg/mL
CN(C)c1ncnc2c1ncn2COCCO	PRK	cytopathic effect	>400 µg/mL
[N-]=[N+]=N[C@H]1[C@@H](O)[C@H](n2cnc3c(N)ncnc32)O[C@@H]1CO	PRK	cytopathic effect	≥40 µg/mL
O=c1[nH]c(=O)n(COCCO)cc1Cl	PRK	cytopathic effect	>400 µg/mL
Cc1cn([C@@H]2OC3COP(=O)(O)OC3[C@H]2O)c(=O)nc1N	-	-	>400 µg/mL
Nc1nc2c(nc(Cl)n2COCCO)c(=O)[nH]1	PRK	cytopathic effect	>400 µg/mL
O=c1c2ncn(COC(CO)CO)c2nc2[nH]c(-c3ccccc3)cn12	-	cytopathic effect	>175 µg/mL
Cc1nc2ccc(Br)cc2c(=O)n1-c1nnc(-c2cccc(Cl)c2Cl)c(N)n1	HeLa	cytopathic effect	>16 µg/mL
Nc1ncnc2c1ncn2[C@H]1OC[C@@H](CO)C1O	HeLa	cytopathic effect	>80 µg/mL
COc1ccc(-c2[nH]c3nc4c(ncn4COCCO)c(=O)n3c2-c2ccc(C(c3ccccc3)c3ccccc3)cc2)cc1	-	cytopathic effect	>16 µg/mL
Nc1ncnc2c1ncn2[C@@H]1O[C@H](CO)[C@@H](O)[C@@H]1O	PRK	cytopathic effect	30 µg/mL
Cc1cn([C@@H]2OC[C@H](CO)[C@H]2O)c(=O)[nH]c1=O	HeLa	cytopathic effect	>80 µg/mL
Nc1nc2c(ncn2[C@@H]2CO[C@H](CO)[C@@H](O)C2)c(=O)[nH]1	ESM	cytopathic effect	>200 µg/mL
Cn1cc(CCCCOc2ccc(C(=O)O)cc2)cc1C=O	VERO	plaque count	>380 µM
CCCCCCCCc1cn([C@@H]2O[C@H](COP(=O)(O)O)[C@@H](O)[C@H]2O)c(=O)nc1N	-	-	>400 µg/mL
Nc1nc2c(nc(N)n2COCCO)c(=O)[nH]1	PRK	cytopathic effect	>400 µg/mL
Cn1cc(CCCCOc2ccc(C3=NCCO3)cc2)cc1C=O	VERO	plaque count	>280 µM
Nc1nc(F)nc2c1ncn2[C@@H]1C=C(CO)[C@@H](O)[C@H]1O	HeLa	cytopathic effect	0.4 µg/mL
Nc1ncnc2c1ncn2[C@H]1C[C@H](O)[C@@H](CO)O1	PRK	cytopathic effect	>200 µg/mL
CC(=O)OCCOCn1cnc2c(=O)n3cc(-c4ccc5ccccc5c4)[nH]c3nc21	-	cytopathic effect	>16 µg/mL
[N-]=[N+]=N[C@H]1[C@H](O)[C@H](n2cnc3c(N)ncnc32)O[C@@H]1CO	PRK	cytopathic effect	>200 µg/mL
Nc1nc2c(ncn2[C@H]2OC[C@@H](CO)C2O)c(=O)[nH]1	HeLa	cytopathic effect	>80 µg/mL
CO[C@@H]1[C@H](O)[C@@H](CO)O[C@H]1n1cnc2c(N)ncnc21	PRK	cytopathic effect	>100 µg/mL
O=c1[nH]cnc2c1ncn2COCCO	PRK	cytopathic effect	>400 µg/mL
CCCc1cn([C@@H]2O[C@H](COP(=O)(O)O)[C@@H](O)[C@H]2O)c(=O)nc1N	-	-	>400 µg/mL
O=c1ccn(COCCO)c(=O)[nH]1	PRK	cytopathic effect	>400 µg/mL
CCc1cn([C@@H]2O[C@H](COP(=O)(O)O)[C@@H](O)[C@H]2O)c(=O)nc1N	-	-	>400 µg/mL
COc1cc(Cc2cnc(-n3c(C)nc4ccc(Br)cc4c3=O)nc2N)cc(OC)c1OC	HeLa	cytopathic effect	>80 µg/mL

Again, the opening 3 rows:

SMILES | cell line | read by | result
CCc1nc(-n2c(C)nc3ccc(Br)cc3c2=O)nc(N)c1-c1ccc(Cl)cc1 | HeLa | cytopathic effect | >16 µg/mL
O=c1c2ncn(COCCO)c2[nH]c2ncc(C(c3ccccc3)(c3ccccc3)c3ccccc3)n12 | - | cytopathic effect | >16 µg/mL
CN(C)c1ncnc2c1ncn2COCCO | PRK | cytopathic effect | >400 µg/mL

ECn: concentration that inhibits the pathogen or its effect by n%. An empty or dashed field is not shown.